Pooled drug test results. Numbers come from NIAID ChemDB, via PubChem.

All rows: tests in culture; agent: HIV-1; cell line: CEM; measure: inhibition

Lines come from different laboratories, so protocols vary. Percent inhibition refers to the dose given; in toxicity tests it is the harm to the cells. Blank or dashed fields: not listed here.

| smiles | strain | read by | conditions | tested at | result |
|---|---|---|---|---|---|
| COc1ccc(/C=N/N=C(\N)NO)c(OC)c1.Cc1ccc(S(=O)(=O)O)cc1 | IIIB | cytopathic effect | - | 32 µg/mL | 39% |
| N[C@H]1CONC1=O | N1T | syncytia | - | 5 µg/mL | 100% |
| O=C(CSC1=NNC2(C(=O)N1)c1ccccc1-c1ccccc12)NC(=S)Nc1ccccc1 | RF | cytopathic effect / XTT | - | 6.3 µM | 21.65% |
| COc1cc(Br)c(/C=N/N=C(\N)NO)cc1OC.Cc1ccc(S(=O)(=O)O)cc1 | IIIB | cytopathic effect | - | 10 µg/mL | 35% |
| Clc1ccc(C2ON=C(c3ccccc3)N2C23CC4CC(CC(C4)C2)C3)cc1 | - | cytopathic effect / XTT | - | 6.3 µM | 28.71% |
| COc1ccc(/C=N/N=C(/N)NO)cc1OC | IIIB | cytopathic effect | - | 32 µg/mL | 65% |
| CC(=O)CCCCCCCCCCCC(=O)O | - | cytopathic effect | - | 10 µg/mL | 40% |
| NC1=NNC2(C(=O)N1)c1ccccc1-c1ccccc12 | RF | cytopathic effect / XTT | - | 200 µM | 17% |
| Cn1ccnc1CCCCCCCCCCCC(=O)O | - | cytopathic effect | - | 10 µg/mL | 31% |
| Cc1cc(=O)c2c(O)c3c(O)cc(O)c4c5c(O)cc(O)c6c(O)c7c(=O)cc(C)c8c1c2c(c34)c(c65)c78 | - | ELISA | 7 d | 0.25 µg/mL | 97% |
| O=c1ccn(-c2cn(CP(=O)(O)O)nn2)c(=O)[nH]1 | IIIB | - | - | 100 µM | 0% |
| CN(C)c1ccc(C2ON=C(c3ccccc3)N2C23CC4CC(CC(C4)C2)C3)cc1 | - | cytopathic effect / XTT | - | 0.63 µM | 30.81% |
| CN1C2N=CN=C(N)C2=NC1c1cn(CCCP(=O)(O)O)nn1 | IIIB | - | - | 100 µM | 0% |
| S=C1NNC2(C(=S)N1)c1ccccc1-c1ccccc12 | RF | cytopathic effect / XTT | - | 0.63 µM | 10.22% |
| CN1C2N=CN=C(N)C2=NC1c1cn(CP(=O)(O)O)nn1 | IIIB | - | - | 100 µM | 0% |
| O=C1N=C2SC=C(NC(=S)Nc3ccccc3)N2NC12c1ccccc1-c1ccccc12 | RF | cytopathic effect / XTT | - | 63 µM | 35.23% |
| CCNC(=O)CCCCCCCCCC(=O)O | - | cytopathic effect | - | 10 µg/mL | 0% |
| Cc1cn([C@H]2C[C@H](N=[N+]=[N-])[C@@H](COP(=O)(O)OCCO[C@H]3O[C@H](CO)[C@@H](O)[C@H](O)[C@@H]3O)O2)c(=O)[nH]c1=O | LAV-Bru | RT activity | 22 d | 5 µM | 0% |
| c1ccc(C2=NOC(c3ccccc3)N2C23CC4CC(CC(C4)C2)C3)cc1 | - | cytopathic effect / XTT | - | 63 µM | 53.58% |
| C[n+]1cn(-c2cn(C(O)CP(=O)(O)O)nn2)c(=O)[nH]c1=O | IIIB | - | - | 100 µM | 0% |
| Cc1ccc(S(=O)(=O)O)cc1.N/C(=N\N=C\c1ccccc1)NO | IIIB | cytopathic effect | - | 10 µg/mL | 12% |
| CCOP(=O)(Cn1cc(C2N=C3C(N)=NC=NC3N2C)nn1)OCC | IIIB | - | - | 100 µM | 0% |
| C=CCNC(=O)NC1=CSC2=NC(=O)C3(NN12)c1ccccc1-c1ccccc13 | RF | cytopathic effect / XTT | - | 63 µM | 16.15% |
| O=C(O)CCCCCCCCCCCn1cnnc1 | RF | cytopathic effect | - | 10 µg/mL | 66% |
| CCCCCCCCCCCCCCCCOP(=O)(OCCO[C@@H]1O[C@H](CO)[C@@H](O)[C@H](O)[C@@H]1O)OC[C@H]1O[C@@H](n2cc(C)c(=O)[nH]c2=O)C[C@@H]1N=[N+]=[N-] | LAV-Bru | RT activity | 22 d | 1 µM | 0% |
| CC(=O)NC1C=CN(c2cn(C(O)P(=O)(O)O)nn2)C(=O)N1 | IIIB | - | - | 100 µM | 0% |
| COc1ccc(/C=N/N=C(\N)NO)cc1F | IIIB | cytopathic effect | - | 10 µg/mL | 61% |
| Cc1cccc(C2ON=C(c3ccccc3)N2C23CC4CC(CC(C4)C2)C3)c1 | - | cytopathic effect / XTT | - | 2 µM | 31.95% |
| CCOP(=O)(CCCn1cc(-n2ccc(=O)[nH]c2=O)nn1)OCC | IIIB | - | - | 100 µM | 0% |
| COc1cc(/C=N/N=C(\N)NO)c(Cl)cc1O.Cc1ccc(S(=O)(=O)O)cc1 | IIIB | cytopathic effect | - | 10 µg/mL | 0% |

Again, the opening 3 rows:

| smiles | strain | read by | conditions | tested at | result |
|---|---|---|---|---|---|
| COc1ccc(/C=N/N=C(\N)NO)c(OC)c1.Cc1ccc(S(=O)(=O)O)cc1 | IIIB | cytopathic effect | - | 32 µg/mL | 39% |
| N[C@H]1CONC1=O | N1T | syncytia | - | 5 µg/mL | 100% |
| O=C(CSC1=NNC2(C(=O)N1)c1ccccc1-c1ccccc12)NC(=S)Nc1ccccc1 | RF | cytopathic effect / XTT | - | 6.3 µM | 21.65% |